Compound potency records, mixed from different reports. Data source: NIAID ChemDB in PubChem.

All rows: growth or infection tests; species: HIV-1

a–b is a range or a potency band. Lines come from different laboratories, so protocols vary. ECn is the concentration giving n% inhibition of infection, replication or growth. An empty or dashed field is not shown.

structure	read by	read-out	mutations	strain	cell line	setting	value
CC[C@H]1C(=O)Nc2ccc(F)cc2N1C(=O)OC(C)C	cytopathic effect	EC50	RT-Y181C	J-2 (RT-Y181C)	CEM	-	0.009 µg/mL
Cc1cc(O)cc(S(=O)(=O)c2cccc(N)c2C#N)c1	β-galactosidase	EC50	RT-V108I	-	HeLa + HELA CD4+	-	0.12 µM
O=c1[nH]cnc2c1ncn2[C@H]1CC[C@@H](CO)O1	RT activity	EC50	-	RF	MT-4	-	0.68 µM
Cc1cn([C@H]2C=C[C@@H](CO)O2)c(=O)[nH]c1=O	recombinant virus assay	EC50	K103N/Y188L	Clinical isolate	MT-2	-	0.384 µM
CC(C)CN(C[C@@H](O)[C@H](Cc1ccccc1)NC(=O)O[C@H]1CCOC1)S(=O)(=O)c1ccc(N)cc1	cytopathic effect / MTT	EC50	-	LAI Laboratory isolate	MT-2	-	0.041 µM
C1CNCCNCCCN(CCCN2CCCNCCNCCCNCC2)CCNC1	cytopathic effect / MTT	EC50	-	IIIB	MT-4	-	0.37 µM
CCc1c(C(=O)c2cc(C)cc(C)c2)n(CC2CC=CC2)c(=O)[nH]c1=O	cytopathic effect / XTT	EC50	-	CLADE B	PBMC	clinical isolate	0.0006 µM
CCc1cc(CCN2C(=O)c3ccccc3C2=O)c(=O)[nH]c1C	p24	EC95	-	IIIB	H9	-	40 µM
Nc1ccn([C@@H]2CS[C@H](CO)O2)c(=O)n1	cytopathic effect / MTT	EC50	-	LAI Laboratory isolate	MT-2	-	0.66 µM
CC(C)(C)NC(=O)[C@@H]1C[C@@H]2CCCC[C@@H]2CN1C[C@@H](O)[C@H](Cc1ccccc1)NC(=O)[C@H](CC(N)=O)NC(=O)c1ccc2ccccc2n1	p24	EC95	PR-L10R L63P V82T	NL4-3	MT-4	-	0.025 µM
Nc1ccn([C@@H]2CS[C@H](CO)O2)c(=O)n1	p24 / ELISA	EC90	L74V	-	Primary T lymphocytes	-	2.9 µM
Cc1ccnc2c1NC(=O)c1cccnc1N2C1CC1	cytopathic effect	EC50	RT-Y181C	J-2 (RT-Y181C)	CEM	-	0.65 µg/mL
N#CC[C@H](C1CCCC1)n1cc(-c2ncnc3[nH]ccc23)cn1	p24 / ELISA	EC50	-	-	PBMC	-	0.1 µM
CC(C)(C)NC(=O)[C@@H]1C[C@@H]2CCCC[C@@H]2CN1C[C@@H](O)[C@H](Cc1ccccc1)NC(=O)[C@H](CC(N)=O)NC(=O)c1ccc2ccccc2n1	p24	EC50	-	Ba-L Laboratory isolate	PBMC	-	0.014 µM
CCCc1cc(=O)oc2c3c(c4c(c12)OC(C)(C)C=C4)O[C@H](C)[C@@H](C)[C@@H]3O	cytopathic effect / XTT	EC50	RT-P236L	IIIB HEPT-resistant (RT P236L)	CEM + CEM-SS	-	1.7 µM
CCc1cc(NCc2nc3c(Cl)ccc(Cl)c3o2)c(=O)[nH]c1C	p24	EC95	-	WMJ-2	MT-4	-	0.2 µM
COc1cc(C(F)(F)F)cc(S(=O)(=O)c2cccc(N)c2C#N)c1	β-galactosidase	EC50	RT-V108I	-	HeLa + HELA CD4+	-	0.029 µM
Cc1ccc(NC(=O)Nc2ccc(-c3ccc(NC(=O)Nc4ccc(-c5ccc(NC(=O)Nc6ccc(-c7ccc(NC(=O)Nc8ccc(C)cc8)cc7S(=O)(=O)O)c(S(=O)(=O)O)c6)cc5S(=O)(=O)O)c(S(=O)(=O)O)c4)cc3S(=O)(=O)O)c(S(=O)(=O)O)c2)cc1	p24	EC50	-	GB8	JM	-	7.8 µM
Nc1nc(=O)n([C@@H]2CS[C@H](CO)O2)cc1F	recombinant virus assay	EC50	A62V (mixture)/L74V/V75I (mixture)/K103N/Y115F/F116Y/Q151M	Clinical isolate	MT-2	-	3.612 µM
O=c1[nH]cnc2c1ncn2[C@H]1CC[C@@H](CO)O1	p24	EC50	-	263	MT-4	-	3.6 µM
Cc1cc(C#N)cc(C)c1Oc1nc(Nc2ccc(C#N)cc2)nc(N)c1Br	absorbance	EC50	-	92BR014	PBMC	-	0.0031 µM
O=C(N[C@H]1c2ccccc2OC[C@H]1O)[C@H](Cc1cccnc1)C[C@H](O)CN1CCN(Cc2ccn(-c3cccc(Cl)c3)c2)C[C@H]1C(=O)NCC(F)(F)F	p24	EC95	-	NL4-3 WT	MT-4	-	≤0.008 µM
CCc1c(Sc2ccccn2)n(COCc2ccccc2)c(=O)[nH]c1=O	cytopathic effect / XTT	EC50	-	BaL	MAC	-	0.007 µM
O=C(N[C@H]1c2ccccc2OC[C@H]1O)[C@H](Cc1cccnc1)C[C@H](O)CN1CCN(Cc2ccn(-c3ccccc3)c2)C[C@H]1C(=O)NCC(F)(F)F	p24	EC95	PR-L10I N37S R41K M46I I54V I62V L63P A71V V77I V82A L90M I93L	Q-60C Clinical isolate	MT-4	-	≤0.008 µM
CC(C)CN(C[C@@H](O)[C@H](Cc1ccccc1)NC(=O)[C@H](CC(N)=O)NC(=O)c1ccc2ccccc2n1)C(=O)NC(C)(C)C	p24	EC50	PR-L10R M46I V82T	NL4-3	MT-4	-	<0.1 µM
Cc1cn([C@H]2C[C@H](N=[N+]=[N-])[C@@H](CO)O2)c(=O)[nH]c1=O	p24 / ELISA	EC50	L74V	-	Primary T lymphocytes	-	0.02 µM
Cc1cn([C@H]2C[C@H](N=[N+]=[N-])[C@@H](CO)O2)c(=O)[nH]c1=O	cytopathic effect / XTT	EC50	RT-V90I T139I P225S	IIIB	CEM + CEM-SS	-	0.01 µM
O=C(N[C@H]1c2ccccc2OC[C@H]1O)[C@H](Cc1cccnc1)C[C@H](O)CN1CCN(Cc2ccn(-c3cccc(C(F)(F)F)c3)c2)C[C@H]1C(=O)NCC(F)(F)F	p24	EC50	PR-L10I M46I I54V Q58E L63P I64V V77I V82F I84V L90M I93L	K-60C Clinical isolate	MT-4	-	<0.031 µM
CCN(CC)C(=O)OCC1CN(C(=O)c2cc(OC)c(OC)c(OC)c2)CCN1C(=O)c1cc(OC)c(OC)c(OC)c1	RT activity	EC50	-	BaL	Macrophage + Monocytes/macrophages	-	10 µM
C1CNCCNCCCN[C@H]([C@@H]2CNCCCNCCNCCCN2)CNC1	cytopathic effect / MTT	EC50	-	RF	MT-4	-	0.29 µM
O=C(Nc1cc(S(=O)(=O)O)cc2cc(S(=O)(=O)O)c(N=Nc3ccc(N=Nc4c(S(=O)(=O)O)cc5cc(S(=O)(=O)O)cc(NC(=O)c6cccc(Cl)c6Cl)c5c4O)cc3)c(O)c12)c1ccc(Cl)cc1Cl	-	EC90	-	RF	CEM	-	0.46–0.9 µg/mL
CC(C)Nc1cccnc1N1CCN(C(=O)c2cc3cc(NS(C)(=O)=O)ccc3[nH]2)CC1	cytopathic effect	EC50	RT-V108I M184I	D-3 (RT-V108I M184I)	CEM	-	0.014 µg/mL
O=C(N[C@H]1c2ccccc2OC[C@H]1O)[C@H](Cc1cccnc1)C[C@H](O)CN1CCN(Cc2ccn(-c3cc(Cl)c(Cl)c(Cl)c3)c2)C[C@H]1C(=O)NCC(F)(F)F	p24	EC95	PR-L10I N37S R41K M46I I54V I62V L63P A71V V77I V82A L90M I93L	Q-60C Clinical isolate	MT-4	-	≤0.008 µM
Cc1cn([C@H]2C[C@H](N=[N+]=[N-])[C@@H](CO)O2)c(=O)[nH]c1=O	p24	EC50	-	RF	C8166	-	0.06 µM
Cc1cc(Br)cc(S(=O)(=O)c2cccc(N)c2C#N)c1	cytopathic effect	EC50	-	IIIB	MT-4	-	0.01 µM
O=C(O)P(=O)(O)O	p24	EC50	-	7932 CLADE B CLADE B	PBMC	-	4.93 µM
CCC(=O)c1ccc(F)c([C@@H]2C[C@@H]2NC(=O)Nc2ccc(C#N)cn2)c1O	absorbance	EC50	-	92BR014	PBMC	-	0.0007 µM
N#Cc1c(N)cccc1S(=O)(=O)c1cc(Cl)cc(Cl)c1	cytopathic effect	EC50	-	IIIB	MT-4	-	0.3 µM
CC(C)(C)NC(=O)[C@@H]1CN(Cc2cccnc2)CCN1C[C@@H](O)C[C@@H](Cc1ccccc1)C(=O)N[C@H]1c2ccccc2C[C@H]1O	p24	EC50	PR-L10I K43T M46L I54L L63P A71T V82A L90M Q92K	Clinical isolate	PBMC	-	>1 µM
Cc1ccnc2c1NC(=O)c1cccnc1N2C1CC1	cytopathic effect / XTT	EC50	RT-L100I	IIIB	CEM + CEM-SS	-	0.14 µM
Cc1cc(Cl)cc(S(=O)(=O)c2cccc(N)c2C#N)c1	β-galactosidase	EC50	RT-V108I Y181C	-	HeLa + HELA CD4+	-	18 µM
O=C1N(Cc2ccc(CO)cc2)[C@H](Cc2ccccc2)[C@H](O)[C@@H](O)[C@@H](Cc2ccccc2)N1Cc1ccc(CO)cc1	p24	EC50	-	Clinical isolate W	PBMC	-	0.04 µM
Cc1cn([C@H]2C[C@H](N=[N+]=[N-])[C@@H](CO)O2)c(=O)[nH]c1=O	cytopathic effect / MTT	EC50	-	LAV	CEM + CEM-SS	-	0.005 µM

Repeating the final 5 entries:

structure	read by	read-out	mutations	strain	cell line	setting	value
CC(C)(C)NC(=O)[C@@H]1CN(Cc2cccnc2)CCN1C[C@@H](O)C[C@@H](Cc1ccccc1)C(=O)N[C@H]1c2ccccc2C[C@H]1O	p24	EC50	PR-L10I K43T M46L I54L L63P A71T V82A L90M Q92K	Clinical isolate	PBMC	-	>1 µM
Cc1ccnc2c1NC(=O)c1cccnc1N2C1CC1	cytopathic effect / XTT	EC50	RT-L100I	IIIB	CEM + CEM-SS	-	0.14 µM
Cc1cc(Cl)cc(S(=O)(=O)c2cccc(N)c2C#N)c1	β-galactosidase	EC50	RT-V108I Y181C	-	HeLa + HELA CD4+	-	18 µM
O=C1N(Cc2ccc(CO)cc2)[C@H](Cc2ccccc2)[C@H](O)[C@@H](O)[C@@H](Cc2ccccc2)N1Cc1ccc(CO)cc1	p24	EC50	-	Clinical isolate W	PBMC	-	0.04 µM
Cc1cn([C@H]2C[C@H](N=[N+]=[N-])[C@@H](CO)O2)c(=O)[nH]c1=O	cytopathic effect / MTT	EC50	-	LAV	CEM + CEM-SS	-	0.005 µM